Data on 4 molecules can be found in BindingDB's records for 10632058.

For this assay, the target named is Neuraminidase (Influenza A virus (strain A/Tern/Australia/G70C/1975 H11N9), UniProt P03472). The experiment in a line: ASSAY_NAME: Neuraminidase Inhibition Assay DESCRIPTION: A standard fluorimetric assay was used to measure influenza virus neuraminidase activity. The substrate 2 -(4-methylumbelliferyl)-alpha-D-acetylneuraminic acid is cleaved by neuraminidase to yield a fluorescent product that can be quantified. Fluorescence was read using an Aminco-Bowman fluorescence spectrophotometer (excitation, 360 nm; emis. The following applies: pH 6.5.

The IC50 is the point on the concentration scale where inhibition reaches its midpoint. `CCCC(CCC)Oc1cc(C(=O)O)ccc1NC(C)=O` displayed a half-inhibitory concentration (IC50) of 230 µM. Turning to `CCC(CC)Oc1cc(C(=O)O)cc(N)c1NC(C)=O` [3-amino-4-acetamido-5-(pentan-3-yloxy)benzoic acid], the IC50 is 15 µM. This IC50 lies about 15-fold lower than the previous one. The same measure for `CCC(CC)Oc1cc(C(=O)O)ccc1NC(C)=O` [4-acetamido-3-(pentan-3-yloxy)benzoic acid]: 37 µM; for `CCC(CC)Nc1cc(C(=O)O)ccc1NC(C)=O`: 25 µM.
